For at least one entry, the source does not settle the construct or the ends of the probe.
Molecular target: EnvR (UniProt Q5BQ43)
Experiment: EMSA
Conditions: EnvR 0.8 mg/mL, DNA 1.5-15 ng/uL, binding buffer, pH and temperature not stated, recombinant protein, label: unlabelled, SYBR green post-stain, probe letters rebuilt from the primers and the genome

“TCCCAGATCTCACTGAATAAATCCGACTTATTTTTGAAATGCCAATAGATTGCGCCGCGCGTCACGCCAGCAGCGTTCGCAATCTCCGCCAGCGAGGTTGCCGATACGCCTTGCTGCGAGAACAAACGCAGGGCCACATCCAGGATGTGTTGTCGTGTCTCCAGCGCTTGTTGTTTGGTTTTTCGTGCCATATGTCGGTGAATTTACAGGCGTTAGATTTACATACATTTATGGATGTATGTACCATAGCACGACGATAATATAAACGCAGCAATGGGTTTAAGGACCTTTGACCATTGA (double strand) [acrAB promoter WT]”: binds.

Source: paper PMC9780535
